Results of unrelated studies side by side (data: NIAID ChemDB).

Common to all: tests in culture; species: Candida albicans; measure: MIC

Neighbouring rows are from separate reports.

SMILES,strain or isolate,method,conditions,value
CC1C(=O)CC(c2ccccc2)N(OCCc2nc3ncccc3[nH]2)C1c1ccccc1,6 (NCIM-C27),,,200 µg/mL
CCC(C)n1ncn(-c2ccc(N3CCN(c4ccc(OC[C@H]5CO[C@](Cn6cncn6)(c6ccc(Cl)cc6Cl)O5)cc4)CC3)cc2)c1=O,ATCC 10231,,,5 µg/mL
O=C(Nc1nc2ccc(NC(=O)[C@@H]3CCC[C@H](NCc4ccc5ccccc5c4)C3)cc2s1)C1CCCC1,ATCC 90028,,,0.78 µM
Cc1cc(Cl)[nH]c2ccc3c(=O)c(C(=O)NN4C(=O)C(Cl)C4c4ccccc4Cl)cnc3c12,,broth dilution,,100 µg/mL
CCN(CC)CCCC(C)=CCC/C(C)=C/CCC=C(C)CC/C=C(\C)CCC=C(C)C,S9,,,100 µg/mL
O=C(O)C1=CCCCC1,ATCC10259,,,>1000 µg/mL
Fc1cc(C2=Nn3c(COc4ccc(Cl)cc4)nnc3S/C2=C\c2ccc(Cl)cc2)c(Cl)cc1Cl,,,,6 µg/mL
NC(=NC1CCCC1)c1ccc(-c2ccc(-c3ccc(C(N)=NC4CCCC4)cc3)o2)cc1,Isolate 17 (strain 12-99),,,12.5 µg/mL
C/C=C/C=C(/C)C(=O)O[C@H]1[C@H](O)[C@H](OCC23C4C=C(C(C)C)C2(C(=O)O)C(C=O)(C4)[C@@H]2CC[C@@H](C)[C@H]23)O[C@H](C)[C@H]1OC,2402E,,,0.06 µg/mL
C=C1C[C@@]23CC[C@H]4[C@@](C)(CCC[C@@]4(C)C(=O)O)[C@@H]2CC[C@@H]1C3,,,,>100 µg/mL
Cc1cc(Cl)[nH]c2ccc3c(=O)c(C(=O)NN4C(=O)C(Cl)C4c4ccc(Cl)cc4)cnc3c12,,broth dilution,,200 µg/mL
Fc1cc(C2=Nn3c(COc4ccc(Cl)cc4Cl)nnc3S/C2=C\c2ccc(Cl)cc2Cl)c(Cl)cc1Cl,,,,6 µg/mL
CC(/C=C/C=C(\C)C(O)C(C)C(=O)O[C@H]1C[C@@H](C)C=C2C=C[C@@](C)(O)[C@](C)(C(=O)CCO)[C@H]21)=C\C=C\C(=O)O,ATCC 10231,,,50 µg/mL
Cc1cc(OCc2nnc3n2N=C(c2cc(F)c(Cl)cc2Cl)/C(=C/c2ccc4c(c2)OCO4)S3)ccc1Cl,,,,6 µg/mL
C[C@H](n1nnnc1CCN1CCN(c2ccc(F)cc2)CC1)[C@](O)(Cn1cncn1)c1ccc(F)cc1F,V-01-191A-261 (resistant),,,2 µg/mL
COc1ccc(/C=C2\Sc3nnc(COc4ccc(Cl)c(C)c4)n3N=C2c2cc(F)c(Cl)cc2Cl)cc1OC,,,,12.5 µg/mL
CC[N+]([O-])(CC)CCCC(C)=CCC/C(C)=C/CCC=C(C)CC/C=C(\C)CCC=C(C)C,S9,,,200 µg/mL
Cc1cc(OCc2nnc3n2N=C(c2cc(F)c(Cl)cc2Cl)/C(=C/c2ccc(Cl)cc2Cl)S3)ccc1Cl,,,,12.5 µg/mL
CC[N+](C)(CC)CCCC(C)CCCC(C)CCCCC(C)CCCC(C)CCC[N+](C)(CC)CC,S9,,,50 µg/mL
Cc1cc(Cl)[nH]c2ccc3c(=O)c(C(=O)NN=Cc4ccccc4O)cnc3c12,,broth dilution,,100 µg/mL
CC1C(=O)C(C)C(c2ccccc2)N(OCCc2nc3ncccc3[nH]2)C1c1ccccc1,51 (NCIM-C27),,,50 µg/mL
CC[N+]([O-])(CC)CCCC(C)CCCC(C)CCCCC(C)CCCC(C)CCC[N+]([O-])(CC)CC,S9,,,>200 µg/mL
CC1C(=O)C(C)C(c2ccc(Cl)cc2)N(OCCc2nc3ncccc3[nH]2)C1c1ccc(Cl)cc1,51 (NCIM-C27),,,12.5 µg/mL
COc1cc(O)c2c(c1)C(=O)c1c(cc3c(c1O)-c1c(cc(C)c(C(=O)NC(CO)C(=O)O)c1O)[C@H](OC1OC(C)C(O)C(OC4OCC(O)C(O)C4O)C1O)C3O)C2=O,ATCC 24433,,,3.12 µg/mL
c1ccc(-c2ccc(C(c3ccccc3)n3ccnc3)cc2)cc1,ATCC 10231,,,10 µg/mL
CN(C)C(=S)N(C)C,MTCC 183,visual reading,,250 µg/mL
C[C@@]12CCC[C@@](C)(C(=O)O)C1CCC13CC4[C@H](CC12)[C@]4(C)C3,,,,>100 µg/mL
C[C@H](n1nnnc1CCN1CCN(C(c2ccccc2)c2ccccc2)CC1)[C@](O)(Cn1cncn1)c1ccc(F)cc1F,V-01-191A-261 (resistant),,,4 µg/mL
CCOC(=O)N1CCC(Br)(C(=O)O)CC1,ATCC10259,,,100 µg/mL
Cc1cc(Cl)[nH]c2ccc3c(=O)c(C(=O)NN=Cc4ccccc4)cnc3c12,,broth dilution,,250 µg/mL
Fc1cc(C2=Nn3c(COc4ccccc4)nnc3S/C2=C\c2ccc(Cl)cc2)c(Cl)cc1Cl,,,,12.5 µg/mL
OC(Cn1cncn1)(Cn1cncn1)c1ccc(F)cc1F,1001,,,50 µg/mL
O=C(N/N=C/c1cc([N+](=O)[O-])ccc1O)c1ccc(I)cc1,ATCC 90028,,,>25 µg/mL
COc1ccc(C2C(C)C(=O)C(C)C(c3ccc(OC)cc3)N2OCCc2nc3ncccc3[nH]2)cc1,6 (NCIM-C27),,,12.5 µg/mL
O=C(O)/C1=C/CCCCCCCCCC1,ATCC10259,,,500 µg/mL
Nc1[nH]c(=O)ncc1F,ATCC 90028,broth dilution,48 h,0.125 µg/mL
CC(=O)N1CCN(c2ccc(OC[C@H]3CO[C@](Cn4ccnc4)(c4ccc(Cl)cc4Cl)O3)cc2)CC1,ATCC 10231,,,5 µg/mL
C[C@H](n1nnc(CCN2CCN(c3ccccc3)CC2)n1)[C@](O)(Cn1cncn1)c1ccc(F)cc1F,V-01-191A-261 (resistant),,,8 µg/mL
CCC1CC=C(C(=O)O)CC1,ATCC10259,,,>1000 µg/mL
C[C@H](n1nnc(CCN2CCN(C(c3ccccc3)c3ccccc3)CC2)n1)[C@](O)(Cn1cncn1)c1ccc(F)cc1F,,,,4 µg/mL
Cc1cc(Cl)[nH]c2ccc3c(=O)c(C(=O)NN4C(=O)C(Cl)C4c4ccccc4)cnc3c12,,broth dilution,,500 µg/mL
C[C@H](n1nnc(CCN2CCN(c3ccccc3Cl)CC2)n1)[C@](O)(Cn1cncn1)c1ccc(F)cc1F,,,,4 µg/mL
CC[N+](C)(CC)CCCC(C)=CCC/C(C)=C/CCC=C(C)CC/C=C(\C)CCC[N+](C)(CC)CC,S9,,,25 µg/mL
C[C@H](n1nnc(CCN2CCN(c3ccc([N+](=O)[O-])cc3)CC2)n1)[C@](O)(Cn1cncn1)c1ccc(F)cc1F,,,,2 µg/mL
Cc1c(O)cccc1C(=O)N[C@@H](CSc1ccccc1)[C@H](O)CN1C[C@H]2CCCC[C@H]2C[C@H]1C(=O)NC(C)(C)C,I51,,,64 µg/mL
C[C@H](n1nnnc1CCN1CCN(c2cccc(Cl)c2)CC1)[C@](O)(Cn1cncn1)c1ccc(F)cc1F,,,,2 µg/mL
Fc1cc(C2=Nn3c(COc4ccc(Cl)cc4Cl)nnc3S/C2=C\c2ccc3c(c2)OCO3)c(Cl)cc1Cl,,,,6 µg/mL

Again, the opening 3 rows:

{"SMILES": "CC1C(=O)CC(c2ccccc2)N(OCCc2nc3ncccc3[nH]2)C1c1ccccc1", "strain or isolate": "6 (NCIM-C27)", "value": "200 µg/mL"}
{"SMILES": "CCC(C)n1ncn(-c2ccc(N3CCN(c4ccc(OC[C@H]5CO[C@](Cn6cncn6)(c6ccc(Cl)cc6Cl)O5)cc4)CC3)cc2)c1=O", "strain or isolate": "ATCC 10231", "value": "5 µg/mL"}
{"SMILES": "O=C(Nc1nc2ccc(NC(=O)[C@@H]3CCC[C@H](NCc4ccc5ccccc5c4)C3)cc2s1)C1CCCC1", "strain or isolate": "ATCC 90028", "value": "0.78 µM"}

Blank or dashed fields: not listed here.